In ChEMBL document CHEMBL4118082 (Eur J Med Chem, 2017):
≈ marks a conversion by molar mass, not a printed value.

Key:
[1] = Therapeutic index, ratio of CC50 for human MRC5 cells to MIC90 for Mycobacterium tuberculosis H37Ra Lehmann and Neumann ATCC 25177 harboring pSMT1 luciferase reporter
[2] = tested on: Mycobacterium tuberculosis variant bovis; test: Antimycobacterial activity against Mycobacterium bovis AN5 harboring pSMT1 carrying luxAB gene after 6 days by luminescence based serial dilution method

Q: For `O=c1[nH]c2c(O)cccc2c(O)c1-c1ccccc1`, which TI [1] is on record?
A: 10.1

Q: What about the MIC90 [2] of the same compound?
A: 9.9 µM (≈ 2.51 µg/mL)

Q: What does the source list for `COc1ccc2c(O)c(-c3ccccc3)c(=O)[nH]c2c1`?
A: TI [1]: 6.5; MIC90 [2]: 9.5 µM (≈ 2.54 µg/mL)

Q: Which TI [1] does the source give for `Cc1c(O)c2ccccc2[nH]c1=O` here?
A: 12.5

Q: And the MIC90 [2]?
A: 9.5 µM (≈ 1.66 µg/mL)

Q: Which results are given for `Cc1cc2[nH]c(=O)c(-c3ccccc3)c(O)c2cc1C`?
A: TI [1]: 6.7; MIC90 [2]: 13.2 µM (≈ 3.5 µg/mL)

Q: For `CC(=O)Oc1c(-c2ccccc2)c(=O)[nH]c2ccc(F)cc12`, which TI [1] is on record?
A: 23.3

Q: What about the MIC90 [2] of the same compound?
A: 4.7 µM (≈ 1.4 µg/mL)

Q: What does the source list for `O=c1c(-c2ccccc2)c(O)c2ccccc2n1-c1ccccc1`?
A: TI [1]: > 20; MIC90 [2]: 7.8 µM (≈ 2.44 µg/mL)

Q: With `COc1cccc2c(O)c(-c3ccccc3)c(O)nc12` as the compound, how does the TI [1] read?
A: 13.2

Q: And the MIC90 [2]?
A: 8.6 µM (≈ 2.3 µg/mL)

Q: For `O=c1[nH]c2ccc(O)cc2c(O)c1-c1ccccc1`, which TI [1] is on record?
A: 15.4

Q: And the MIC90 [2]?
A: 10.4 µM (≈ 2.63 µg/mL)

Q: With `Oc1nc2ccccc2c(O)c1-c1ccccc1` as the compound, how does the MIC90 [2] read?
A: 7.2 µM (≈ 1.71 µg/mL)

Q: Which TI [1] does the source give for `COc1ccc2[nH]c(=O)c(-c3ccccc3)c(O)c2c1` here?
A: 8.7

Q: What about the MIC90 [2] of the same compound?
A: 9.3 µM (≈ 2.49 µg/mL)

Q: Which TI [1] does the source give for `O=c1[nH]c2ccc(F)cc2c(O)c1-c1ccccc1` here?
A: 21.1

Q: What about the MIC90 [2] of the same compound?
A: 5.3 µM (≈ 1.35 µg/mL)

Q: For `O=c1[nH]c2ccccc2c(O)c1-c1ccccc1`, which TI [1] is on record?
A: 11.4

Q: What does the source list for `Cc1ccc2[nH]c(=O)c(-c3ccccc3)c(O)c2c1`?
A: TI [1]: > 16; MIC90 [2]: 8.7 µM (≈ 2.19 µg/mL)

Q: With `NNC(=O)c1ccncc1` [ISONIAZID] as the compound, how does the MIC90 [2] read?
A: < 0.1 µM

Q: Which TI [1] does the source give for `O=c1[nH]c2cc(O)ccc2c(O)c1-c1ccccc1` here?
A: 11.2

Q: What about the MIC90 [2] of the same compound?
A: 11.5 µM (≈ 2.91 µg/mL)
